Data reported in patent publication US12535483B2, “Norovirus-binding peptide” (Kao Corporation, priority 2019, dated 2026).

Tested on: norovirus VLPs (GII.4, GII.3, GII.17)
Test: Appearance frequency analysis of sequences after cDNA display in vitro selection against VLPs
Details: among 3447 peptide aptamer sequences obtained after the in vitro selection cycles

“3 (VHSRSSDWLS; Designed peptide) [compound 3]” and “7 (KMRAGRSNHA; Designed peptide) [compound 7]” are the same in Appearance frequency: 11 for the first, 11 for the second.

First: 80 (IESMDGIQHY; Designed peptide) [compound 80]
Second: 86 (RDVSHHNDVS; Designed peptide) [compound 86]
The Appearance frequency of the first is higher: 14 for the first, 12 for the second.

Compared with “92 (GDQFMPFLVV; Designed peptide) [compound 92]”, “155 (VELFLLTSSC; Designed peptide) [compound 155]” is higher in Appearance frequency: 10 for the first, 42 for the second.

Compared with “156 (VVGFGRRSLF; Designed peptide) [compound 156]”, “157 (VRFHGWFAHV; Designed peptide) [compound 157]” is lower in Appearance frequency: 19 for the first, 18 for the second.

Going from “158 (GARIRARGRD; Designed peptide) [compound 158]” to “159 (SVVSCVCRAP; Designed peptide) [compound 159]”, the Appearance frequency falls from 17 to 14.

Compared with “160 (NRLWRRGMCI; Designed peptide) [compound 160]”, “161 (TVRCRIGHMR; Designed peptide) [compound 161]” is lower in Appearance frequency: 13 for the first, 12 for the second.

“162 (YKIRTRRTKR; Designed peptide) [compound 162]” and “163 (SVMVTRSLFG; Designed peptide) [compound 163]” are the same in Appearance frequency: 12 for the first, 12 for the second.

“164 (SFVKGPSRGI; Designed peptide) [compound 164]” and “165 (GSRHKNLIIP; Designed peptide) [compound 165]” are the same in Appearance frequency: 12 for the first, 12 for the second.

“166 (IGSRTGGFIG; Designed peptide) [compound 166]” and “167 (DDVRSGTISG; Designed peptide) [compound 167]” are the same in Appearance frequency: 12 for the first, 12 for the second.

“168 (VTFRNSGRTQ; Designed peptide) [compound 168]” and “169 (SLQHSTTGCR; Designed peptide) [compound 169]” are the same in Appearance frequency: 11 for the first, 11 for the second.

“170 (GTDTFHRSRA; Designed peptide) [compound 170]” and “171 (GVIAGSGHDL; Designed peptide) [compound 171]” are the same in Appearance frequency: 11 for the first, 11 for the second.

“172 (GCVGDLYCSA; Designed peptide) [compound 172]” and “173 (CRPGVRLGIF; Designed peptide) [compound 173]” are the same in Appearance frequency: 11 for the first, 11 for the second.

“174 (VRTHWFGSSR; Designed peptide) [compound 174]” and “175 (TGPIRDHSSL; Designed peptide) [compound 175]” are the same in Appearance frequency: 10 for the first, 10 for the second.

“176 (VGRASRWHIS; Designed peptide) [compound 176]” and “177 (TTSWGVVDSF; Designed peptide) [compound 177]” are the same in Appearance frequency: 10 for the first, 10 for the second.

“178 (TVRSLGITSV; Designed peptide) [compound 178]” and “179 (SKGRHAKRNH; Designed peptide) [compound 179]” are the same in Appearance frequency: 10 for the first, 10 for the second.

“180 (RIDHSVHGIL; Designed peptide) [compound 180]” and “181 (NVSHSVRKPI; Designed peptide) [compound 181]” are the same in Appearance frequency: 10 for the first, 10 for the second.

“182 (RRIDDRILGT; Designed peptide) [compound 182]” and “183 (GSSCVETDGH; Designed peptide) [compound 183]” are the same in Appearance frequency: 10 for the first, 10 for the second.

“184 (CWGIKRTSIA; Designed peptide) [compound 184]” and “185 (ESNGLHLPLR; Designed peptide) [compound 185]” are the same in Appearance frequency: 10 for the first, 10 for the second.
